Assay results published in patent US9439918B2 (priority 2008, dated 2016).

Tested on: Salmonella, Shigella and C. jejuni
Type: cell-based
Settings: MIC50 across Salmonella

Amoxicillin-clavulanate
MIC50 ranges: 2 to 8 µg/mL
